# Assays:
# Format in all cases: in vivo
# Uncinula necator = experiment: Example 12 field trial, Vitis vinifera var. Carignan infected with powdery mildew, France; settings: 1740.9 g a.c./ha
# Plasmopara viticola [1] = experiment: Example 1 field trial, Vitis vinifera var. Chardonnay infected with downy mildew, South Africa; settings: 1620 g a.c./ha
# Venturia inaequalis [2] = experiment: Example 4 field trials, apple (Malus domestica var. Golden delicious) infected with scab; settings: 1950 g a.c./ha
# Plasmopara viticola [3] = experiment: Example 7 field trial, Vitis vinifera var. Merlot infected with downy mildew, France; settings: 3250 g a.c./ha
# Sphaerotheca fuliginea = experiment: Example 8 field trial, cucumber (Cucumis sativus) infected with powdery mildew, Spain; settings: 7 DA-A3, BBCH 63, 430 g a.c./ha
# Peronospora cumensis = experiment: Example 2 field trial, cucumber (Cucumis sativus) infected with downy mildew, France; settings: PESSEV, 1500 g a.c./ha
# Venturia inaequalis [4] = experiment: Example 5 field trials, apple (Malus domestica var. Golden delicious) infected with scab; settings: 1950 g a.c./ha
# Podosphaera leucotricha = experiment: Example 13 field trials, apple (Malus domestica var. Gold Rush, var. Morgenduft Dallago) infected with powdery mildew; settings: 1948.15 g a.c./ha
# [5] = PESSEV, 50 bunches, 14 DA-A3, BBCH 77
# [6] = PESSEV, 50 bunches, 14 DA-A5, BBCH 83
# [7] = PESSEV, 100 leaves, 14 DA-A3, BBCH 77
# [8] = PESINC, location 1 (France), 6 DA-A4, BBCH 72
# [9] = PESINC, location 3 (Belgium), 31 DA-A9, BBCH 73
# [10] = PESINC, location 3 (Belgium), 80 DA-A9, BBCH 73
substance,measurement,setting,value
choline phosphonate,CP f.e. (%),"Uncinula necator; PESINC, 100 leaves, 14 DA-A3, BBCH 77, second listing (r32)",6.7%
same,CP f.e. (%),Uncinula necator; [5],48.3%
same,CP f.e. (%),"Uncinula necator; PESSEV, 50 bunches, 14 DA-A3, BBCH 77, second listing (r28)",4.0%
same,CP f.e. (%),Uncinula necator; [6],12.8%
same,CP f.e. (%),"Uncinula necator; PESSEV, 50 bunches, 14 DA-A5, BBCH 83, second listing (r30)",17.4%
same,CP f.e. (%),Uncinula necator; [7],15.9%
same,CP f.e. (%),"Uncinula necator; PESSEV, 100 leaves, 14 DA-A3, BBCH 77, second listing (r26)",8.7%
same,CP f.e. (%),"Plasmopara viticola [1]; PESINC, 50 bunches, 14 DA-A3, BBCH 77",7.2%
same,CP f.e. (%),"Plasmopara viticola [1]; PESINC, 50 bunches, 14 DA-A5, BBCH 83",8.2%
same,CP f.e. (%),"Plasmopara viticola [1]; PESINC, 100 leaves, 14 DA-A3, BBCH 77",74.5%
same,CP f.e. (%),Plasmopara viticola [1]; [5],34.1%
same,CP f.e. (%),Plasmopara viticola [1]; [6],32.5%
same,CP f.e. (%),Plasmopara viticola [1]; [7],83.8%
same,CP f.e. (%),"Venturia inaequalis [2]; PESINC, location 1 (France), 1 DA-A6, BBCH 74",7.4%
same,CP f.e. (%),Venturia inaequalis [2]; [8],12.5%
same,CP f.e. (%),"Venturia inaequalis [2]; PESINC, location 2 (United Kingdom), 5 DA-A8, BBCH 74",61.0%
same,CP f.e. (%),Venturia inaequalis [2]; [9],41.1%
same,CP f.e. (%),Venturia inaequalis [2]; [10],31.7%
same,CP f.e. (%),"Venturia inaequalis [2]; PESSEV, location 1 (France), 1 DA-A6, BBCH 74",35.7%
same,CP f.e. (%),"Venturia inaequalis [2]; PESSEV, location 1 (France), 6 DA-A4, BBCH 72",32.7%
same,CP f.e. (%),"Plasmopara viticola [3]; PESINC, 50 bunches, 0 DA-A3, BBCH 73",50.6%
same,CP f.e. (%),"Plasmopara viticola [3]; PESINC, 50 bunches, 0 DA-A5, BBCH 77",12.0%
same,CP f.e. (%),"Plasmopara viticola [3]; PESINC, 50 bunches, 9 DA-A6, BBCH 83",10.0%
same,CP f.e. (%),"Plasmopara viticola [3]; PESINC, 100 leaves, 0 DA-A3, BBCH 73",59.2%
same,CP f.e. (%),"Plasmopara viticola [3]; PESINC, 100 leaves, 0 DA-A5, BBCH 77",23.5%
same,CP f.e. (%),"Plasmopara viticola [3]; PESINC, 100 leaves, 9 DA-A6, BBCH 83",16.2%
same,CP f.e. (%),"Plasmopara viticola [3]; PESSEV, 50 bunches, 0 DA-A5, BBCH 77",54.9%
same,CP f.e. (%),"Plasmopara viticola [3]; PESSEV, 50 bunches, 9 DA-A6, BBCH 83",26.5%
same,CP f.e. (%),Sphaerotheca fuliginea; PESINC,80.6%
same,CP f.e. (%),Sphaerotheca fuliginea; PESSEV,90.8%
same,CP f.e. (%),"Peronospora cumensis; 6 DA-A2, BBCH 19",63.8%
same,CP f.e. (%),"Peronospora cumensis; 7 DA-A1, BBCH 16",78.1%
same,CP f.e. (%),"Peronospora cumensis; 7 DA-A4, BBCH 19",73.8%
same,CP f.e. (%),"Peronospora cumensis; 8 DA-A3, BBCH 19",63.9%
same,CP f.e. (%),"Peronospora cumensis; 14 DA-A4, BBCH 19",60.1%
same,CP f.e. (%),Venturia inaequalis [4]; [8],10.0%
same,CP f.e. (%),"Venturia inaequalis [4]; PESINC, location 2 (Italy), 4 DA-A11, BBCH 75",29.3%
same,CP f.e. (%),"Venturia inaequalis [4]; PESINC, location 2 (Italy), 6 DA-A9, BBCH 74",50.7%
same,CP f.e. (%),"Venturia inaequalis [4]; PESINC, location 2 (Italy), 6 DA-A13, BBCH 77",19.7%
same,CP f.e. (%),"Venturia inaequalis [4]; PESINC, location 2 (Italy), 7 DA-A6, BBCH 72",45.7%
same,CP f.e. (%),Venturia inaequalis [4]; [9],41.1%
same,CP f.e. (%),Venturia inaequalis [4]; [10],31.7%
same,CP f.e. (%),"Venturia inaequalis [4]; PESSEV, location 2 (Italy), 4 DA-A11, BBCH 75",65.6%
same,CP f.e. (%),"Venturia inaequalis [4]; PESSEV, location 2 (Italy), 6 DA-A9, BBCH 74",66.6%
same,CP f.e. (%),"Venturia inaequalis [4]; PESSEV, location 2 (Italy), 6 DA-A13, BBCH 77",57.8%
same,CP f.e. (%),"Venturia inaequalis [4]; PESSEV, location 2 (Italy), 7 DA-A6, BBCH 72",81.7%
same,CP f.e. (%),"Podosphaera leucotricha; PESINC, location 1 (France), 20 shoots, 7 DA-A5, BBCH 71",56.5%
same,CP f.e. (%),"Podosphaera leucotricha; PESINC, location 1 (France), 100 leaves, 5 DA-A8, BBCH 74",34.0%
same,CP f.e. (%),"Podosphaera leucotricha; PESINC, location 1 (France), 100 leaves, 6 DA-A6, BBCH 74",44.2%
same,CP f.e. (%),"Podosphaera leucotricha; PESINC, location 1 (France), 100 leaves, 15 DA-A8, BBCH 76",18.6%
same,CP f.e. (%),"Podosphaera leucotricha; PESINC, location 2 (Italy), 5 leaves, 5 DA-A6, BBCH 74",23.6%
same,CP f.e. (%),"Podosphaera leucotricha; PESINC, location 2 (Italy), 40 shoots, 2 DA-A10, BBCH 74",19.3%
same,CP f.e. (%),"Podosphaera leucotricha; PESINC, location 2 (Italy), 40 shoots, 6 DA-A5, BBCH 71",2.7%
same,CP f.e. (%),"Podosphaera leucotricha; PESINC, location 2 (Italy), 40 shoots, 6 DA-A11, BBCH 74",12.2%
same,CP f.e. (%),"Podosphaera leucotricha; PESSEV, location 1 (France), 100 leaves, 6 DA-A6, BBCH 74",53.1%
same,CP f.e. (%),"Podosphaera leucotricha; PESSEV, location 1 (France), 100 leaves, 15 DA-A8, BBCH 76",34.2%
same,CP f.e. (%),"Podosphaera leucotricha; PESSEV, location 2 (Italy), 5 leaves, 2 DA-A10, BBCH 74",37.7%
same,CP f.e. (%),"Podosphaera leucotricha; PESSEV, location 2 (Italy), 5 leaves, 5 DA-A6, BBCH 74",30.4%
same,CP f.e. (%),"Podosphaera leucotricha; PESSEV, location 2 (Italy), 5 leaves, 6 DA-A11, BBCH 74",14.1%
